The exact form of at least one protein or probe is not confirmed.

The values below come from paper doi:10.1101/2020.04.30.069369.

For this data set, the system named is Rgg2Sd (Streptococcus dysgalactiae). As to the kind of experiment: X-ray crystallography.

As to “CCATTTTTCCCACTTTCACAACAAAAAATT / TTTTTTGTTGTGAAAGTGGGAAAAATGGAA [Rgg2 box (pSHP2DNA)]”, the binding result is on record as “binds”.
